Data as given in US7067714B1 (priority 1999, dated 2006).

By UniProt entry, the sequences of proteins in these tests, tags left out.
UniProt O55017, whole entry, looked up: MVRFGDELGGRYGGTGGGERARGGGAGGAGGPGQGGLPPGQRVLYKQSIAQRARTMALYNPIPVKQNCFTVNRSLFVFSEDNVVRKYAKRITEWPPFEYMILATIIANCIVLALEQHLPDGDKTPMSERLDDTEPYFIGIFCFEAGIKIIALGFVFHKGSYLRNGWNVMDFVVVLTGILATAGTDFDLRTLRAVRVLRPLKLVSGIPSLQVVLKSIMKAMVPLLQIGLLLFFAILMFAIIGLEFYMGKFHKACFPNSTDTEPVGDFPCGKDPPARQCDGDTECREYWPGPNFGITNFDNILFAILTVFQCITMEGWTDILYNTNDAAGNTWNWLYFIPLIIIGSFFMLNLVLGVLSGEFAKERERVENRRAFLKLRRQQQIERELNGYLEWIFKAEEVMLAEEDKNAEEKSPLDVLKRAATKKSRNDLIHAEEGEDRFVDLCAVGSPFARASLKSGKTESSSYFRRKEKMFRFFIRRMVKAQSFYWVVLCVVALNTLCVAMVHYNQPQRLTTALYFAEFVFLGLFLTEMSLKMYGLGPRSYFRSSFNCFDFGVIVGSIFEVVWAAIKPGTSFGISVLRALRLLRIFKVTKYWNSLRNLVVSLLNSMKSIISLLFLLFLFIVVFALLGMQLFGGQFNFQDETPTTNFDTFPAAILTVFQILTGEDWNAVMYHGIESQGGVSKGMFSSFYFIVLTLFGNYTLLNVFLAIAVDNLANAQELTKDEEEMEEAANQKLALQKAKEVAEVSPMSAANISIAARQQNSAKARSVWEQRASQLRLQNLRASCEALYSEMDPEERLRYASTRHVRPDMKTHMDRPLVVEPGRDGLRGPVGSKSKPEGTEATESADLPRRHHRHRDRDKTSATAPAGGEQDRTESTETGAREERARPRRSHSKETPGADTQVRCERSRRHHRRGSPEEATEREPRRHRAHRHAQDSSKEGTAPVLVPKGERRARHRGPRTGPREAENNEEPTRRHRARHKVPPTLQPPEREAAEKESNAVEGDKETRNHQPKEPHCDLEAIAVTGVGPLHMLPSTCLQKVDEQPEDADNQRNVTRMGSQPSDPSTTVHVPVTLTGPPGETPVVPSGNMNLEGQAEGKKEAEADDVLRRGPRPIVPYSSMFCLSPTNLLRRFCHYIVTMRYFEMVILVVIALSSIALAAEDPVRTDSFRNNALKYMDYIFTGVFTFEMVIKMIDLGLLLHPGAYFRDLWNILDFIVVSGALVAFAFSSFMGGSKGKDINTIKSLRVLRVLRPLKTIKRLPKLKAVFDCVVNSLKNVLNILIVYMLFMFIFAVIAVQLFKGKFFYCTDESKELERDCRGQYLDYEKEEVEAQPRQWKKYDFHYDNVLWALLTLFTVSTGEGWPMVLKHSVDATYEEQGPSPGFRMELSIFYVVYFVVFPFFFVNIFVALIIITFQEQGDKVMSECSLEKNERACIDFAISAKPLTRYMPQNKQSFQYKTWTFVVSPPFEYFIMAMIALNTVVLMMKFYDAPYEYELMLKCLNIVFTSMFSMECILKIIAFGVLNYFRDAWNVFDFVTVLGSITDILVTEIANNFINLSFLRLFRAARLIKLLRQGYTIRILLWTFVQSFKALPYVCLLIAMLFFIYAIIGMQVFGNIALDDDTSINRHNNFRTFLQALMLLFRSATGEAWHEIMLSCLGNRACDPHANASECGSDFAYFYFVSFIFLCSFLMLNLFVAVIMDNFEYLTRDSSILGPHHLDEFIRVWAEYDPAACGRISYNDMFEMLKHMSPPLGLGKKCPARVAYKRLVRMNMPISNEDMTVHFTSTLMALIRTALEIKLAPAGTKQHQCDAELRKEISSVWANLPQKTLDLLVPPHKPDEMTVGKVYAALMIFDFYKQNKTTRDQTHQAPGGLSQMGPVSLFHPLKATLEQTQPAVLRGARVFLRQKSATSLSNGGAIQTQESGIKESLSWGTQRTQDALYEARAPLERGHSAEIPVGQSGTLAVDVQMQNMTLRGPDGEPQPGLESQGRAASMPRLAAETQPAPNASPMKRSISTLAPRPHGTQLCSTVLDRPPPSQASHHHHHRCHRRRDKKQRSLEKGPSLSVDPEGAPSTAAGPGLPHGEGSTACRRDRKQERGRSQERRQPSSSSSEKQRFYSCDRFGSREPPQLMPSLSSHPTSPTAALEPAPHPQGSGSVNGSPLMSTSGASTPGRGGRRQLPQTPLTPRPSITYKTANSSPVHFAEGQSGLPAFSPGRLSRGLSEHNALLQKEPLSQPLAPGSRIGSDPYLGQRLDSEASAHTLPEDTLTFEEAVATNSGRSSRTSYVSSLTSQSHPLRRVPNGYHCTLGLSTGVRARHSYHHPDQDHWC

Target: N-type Ca channel (Mus musculus, UniProt O55017)
Conditions: in vivo

## ω-conotoxin GVIA
  transient rise of blood pressure on BCO for 30 seconds: mostly disappeared
